# Test results reported in patent publication US20210186010A1, “SURFACES COMPRISING ATTACHED QUORUM SENSING MODULATORS” (priority 2015, published 2021).
# Tested on: Agr QS in the S. aureus reporter strain
# Assay: Fluorescence imaging / single-cell analysis of S. aureus reporter strain incubated with compounds in solution
# Format: cell-based, Staphylococcus aureus
# Settings: 100 nM AIP-I
# From the text: FIG. 1 Includes FIG. 1A-FIG. 1C. FIG. 1A. illustrates the Agr QS responses of S. aureus to exogenously supplied agonists and antagonists. To follow the QS status of S. aureus cells growing on unmodified and chemically-modified surfaces, confocal microscopy and an S. aureus reporter strain that produced the fluorescent protein mKate2 in response to exogenous addition of AIP-I was used. The reporter strain was a ΔagrBDCA ΔRNAIII S. aureus mutant harboring a multicopy plasmid carrying agrCA driven by the native agrP2 promoter. […] The plasmid also harbored the Agr-activated agrP3 promoter fused to mkate2. Therefore, in response to exogenously provided AIP-I, the reporter strain fluoresced red. This QS response was repressed by the administration of TrAIP-II. A constitutively expressed sarAP1-gfpmut2 gene was introduced into the chromosome to enable normalization of QS responses^18. FIG. 1B. […]
# FIG. 1B. Fluorescence images of the S. aureus reporter strain (pathways shown in panel FIG. 1A) after 3 h incubation with buffer or buffer containing 100 nM AIP-I agonist. […] Fluorescence images of the S. aureus reporter strain used in this study following 3 h incubation with TrAIP-II or with combinations of AIP-I and TrAIP-II. […]
# FIG. 6. […] To identify the source of heterogeneity, the fluorescent protein distributions in individual cells was measured under different conditions. […]
substance,measurement,setting,value
AIP-I,Coefficient of variation σ/μ of the normalized QS response,agrP3-mkate2 and agrP2-agrCA in the genome (FIG. 6E),0.20 (±0.04)
same,Coefficient of variation σ/μ of the normalized QS response,reporter strain with agrP2-agrCA and agrP3-mkate2 on plasmid (FIG. 6A),0.69 (±0.03)
